Values quoted from earlier work in US4868155A, “Dipeptidyl 4-0-,6-0-acyl-2-amino-2-deoxy-D-glucose compositions and methods of use in AIDS-immunocompromised human hosts” (Merck & Co., Inc., priority 1987, dated 1989).

Conditions: patients

NC(=O)c1ncn([C@@H]2O[C@H](CO)[C@@H](O)[C@H]2O)n1 [Ribavirin, 1 8 D ribofuranosyl-1,2,4-triazole-3-carboxamide]
toxicity / side effects: well tolerated
